Results as given in PMC3549253, “Effect of repetitive lysine–tryptophan motifs on the bactericidal activity of antimicrobial peptides” (Amino Acids, 2012).
Values after ≈ are worked out from the molar mass of the structure shown. Where two headings read alike, the source gives them in different places.

System: Bacillus subtilis (KCTC 1918)
Assay type: cell-based
Conditions: 2 × 10^5 CFU/ml, 24 h at 37° C, average of 3–4 independent experiments
From the text: Escherichia coli (KCTC 1682), Salmonella typhimurium (KCTC 1926), Pseudomonas aeruginosa (KCTC 1637), Staphylococcus aureus (KCTC 1621), Bacillus subtilis (KCTC 1918), and Listeria monocytogenes (KCTC 3710) were obtained from the Korean Collection for Type Cultures (KCTC). Drug-resistant E. coli strains (CCARM 1229 and CCARM 1238), S. typhimurium strains (CCARM 8007, CCARM 8009, and CCARM 8013), and S. aureus strains (CCARM 3089, CCARM 3090, CCARM 3108, CCARM 3114, and CCARM 3126) were from the Culture Collection of Antibiotic-Resistant Microbes (CCARM) at Seoul Women’s University, Korea.
The antibacterial activities of the peptides against Gram-negative, Gram-positive and antibiotic-resistant bacterial strains were evaluated using the microbroth dilution method (Park et al. [2003]). Aliquots of culture medium containing bacterial suspensions in mid-logarithmic phase at a concentration of 2 × 10^5 colony forming units (CFU)/ml were added to each well of a multiwell plate containing peptide solution serially diluted 2× in 10 mM sodium phosphate buffer (pH 7.2) or phosphate-buffered saline (PBS, 1.5 mM KH2PO4, 2.7 mM KCl, 8.1 mM Na2HPO4, 150 mM NaCl, pH 7.2). Growth inhibition was evaluated by measuring the absorbance at 620 nm using a Versa-Max microplate Elisa Reader (Molecular Devices Co., Sunnyvale, CA, USA) after 24 h of incubation at 37° C. […]

## CC[C@H](C)[C@H](NC(=O)CN)C(=O)NCC(=O)N[C@@H](C)C(=O)N[C@H](C(=O)N[C@@H](CC(C)C)C(=O)N[C@@H](CCCCN)C(=O)N[C@H](C(=O)N[C@@H](CC(C)C)C(=O)N[C@H](C(=O)N[C@H](C(=O)NCC(=O)N[C@@H](CC(C)C)C(=O)N1CCC[C@H]1C(=O)N[C@@H](C)C(=O)N[C@@H](CC(C)C)C(=O)N[C@H](C(=O)N[C@@H](CO)C(=O)N[C@@H](Cc1c[nH]c2ccccc12)C(=O)N[C@H](C(=O)N[C@@H](CCCCN)C(=O)N[C@@H](CCCNC(=N)N)C(=O)N[C@@H](CCCCN)C(=O)N[C@@H](CCCNC(=N)N)C(=O)N[C@@H](CCC(N)=O)C(=O)N[C@@H](CCC(N)=O)C(N)=O)[C@@H](C)CC)[C@@H](C)CC)[C@@H](C)O)[C@@H](C)O)C(C)C)C(C)C [Melittin, reference compound]
10 mM sodium phosphate buffer, pH 7.2
  MIC: 1.56 µM (≈ 4.44 µg/mL)
PBS, pH 7.2 (number in parentheses)
  MIC: 3.12 µM (≈ 8.88 µg/mL)
